Source: patent US8753570B2, “Structure, synthesis, and applications for oligo phenylene ethynylenes” (STC.UNM, priority 2008, dated 2014)

How the values were obtained:
Format in all cases: binding
[1] = Self-assembly / complex formation on carboxymethylamylose (absorption, fluorescence); conditions: aqueous solution
[2] = Self-assembly / complex formation on carboxymethylcellulose (absorption, fluorescence); conditions: for change of fluorescence quantum efficiency of oligomer:CMC complex: CMC (DS=0.7) added to aqueous solution, oligomer ˜15 mM as printed; for increase in fluorescence upon addition of CMC / changes in absorption and fluorescence when CMC is added: aqueous solution; for increase in fluorescence upon addition of CMC: [N-OPE]=1.5×10^−5 M; for changes in absorption and fluorescence when CMC is added: near neutral pH
Source text: N-OPE:CMC complexes can be formed by adding small aliquots of CMC to aqueous solutions containing the N-OPE compound. […] [N-OPE-1]=1.5×10^−5M. […] [N-OPE-2]=1.5×10^−5 and [CMC]=0-4.2×10^−5M. Both excitation and emission slits are 2.5 nm. Excitation wavelength for N-OPE-1 is 355 nm and for N-OPE-2 is 375 nm. For both N-OPEs there are several isosbestic points in the absorption spectra as the two bands in the absorption for water alone are replaced by a spectrum of the N-OPE:CMC having two bands at longer wavelength. For both N-OPEs the fluorescence also undergoes a red shift and increase in intensity as aliquots of CMC are added, finally leveling off at moderate concentrations (greater than 1 mM) of CMC. […] The spectral shifts seem reasonable for a linear dimer; we note that the absorption spectrum of N-OPE-1:CMC is slightly red-shifted compared to N-OPE-2 in water alone. Comparing the estimated length of the linear N-OPE “rigid rod” the “conjugation length” of a linear N-OPE-1 dimer should be slightly longer than that of N-OPE-2. The spectral shifts are also consistent with “planarization” of the chromophores for a monomer assembling on the scaffold.
The N-OPE-CMC complexes can also be generated by addition of small aliquots of the N-OPE to a fixed concentration of CMC. When this was done with N-OPE-1, the very lowest concentrations of N-OPE-1 produced absorption indicative of a mixture of monomer and complex; as the (N-OPE-1) increased the spectra indicated only the complex was being formed on the CMC until a limiting ratio of (N-OPE-1):(moles of CMC polymer repeat units) (CMCPRU)=18:50 is reached. […] Here again as additional N-OPE-2 is added only the monomer spectrum increases.
Binding constants (assuming that an N-OPE dimer is formed in each case) can be estimated from a determination of the individual absorbances of the two species following a treatment for a similar two-state system developed by Pasternack and co-workers. See, e.g., Pasternack, R. F.; Goldsmith, J. I.; Szep, S.; Gibbs, E. J. Biophys. J. 1998, 75, 1024-1031, which is incorporated by reference. […] [N-OPE-2]=1.5×10^−5 and [CMC]=0-4.4×10^−5 M. The induced CD observed for N-OPE-2 and CMA is strong and biphasic with a change in phase of the induced CD exactly corresponding to the maximum in the J-dimer absorption. […] See, e.g., Kim, O. K.; Je, J.; Jernigan, G.; Buckley, L.; Whitten, D. J. Am. Chem. Soc. 2006, 128, 510-516, which is incorporated by reference. A similar structure may thus be reasonable for the CMA:N-OPE-2 complex. For the N-OPE-2 complex with CMC, the induced CD spectrum is much weaker and contains two bands corresponding to different absorptions: the longer wavelength band (negative) overlaps the transition we attribute to a J-dimer of N-OPE-2 while the shorter wavelength band (positive) overlaps the monomer of N-OPE-2.
Self-assembly is not limited solely to the non-symmetrical N-OPE compounds. […] Similar spectral changes, but with less pronounced red shifts, are observed over the same concentration range for S-OPE-1 (H) and N-OPE-1. […] The changes that occur for S-OPE-1 (H), N-OPE-1 and S-OPE-1 (COOEt) (sharp, red shifted absorption spectra, isosbestic points maintained throughout the CMC addition and red-shifted fluorescence) are consistent with an extension of effective conjugation for the oligomers on the carboxylate decorated surface of the CMC.

[3] = test system: DNA; assay: Circular dichroism of OPE bound to DNA; conditions: ds or ss DNA

Structure (SMILES) | aggregate formation upon addition of CMA [1] | change of fluorescence quantum efficiency of oligomer:CMC complex [2] | increase in fluorescence upon addition of CMC [2] | changes in absorption and fluorescence when CMC is added [2] | CD signal when bound to DNA [3] | fluorescence increase of CMA complex compared to water [1]
CCOC(=O)c1ccc(C#Cc2cc(OCCC[N+](C)(C)C)c(C#Cc3ccccc3)cc2OCCC[N+](C)(C)C)cc1.[Cl-].[Cl-] [N-OPE-1] | does not generate a spectrally observable aggregate | strong increase | at least three-fold | striking changes |  | 
C[N+](C)(C)CCCOc1cc(C#Cc2ccc(C(=O)[O-])cc2)c(OCCC[N+](C)(C)C)cc1C#Cc1ccc(C(=O)[O-])cc1 [S-OPE-1 (COO—)] |  |  |  | no changes observed |  | 
CCOC(=O)c1ccc(C#Cc2cc(OCCC[N+](C)(C)C)c(C#Cc3ccc(C#Cc4cc(OCCC[N+](C)(C)C)c(C#Cc5ccccc5)cc4OCCC[N+](C)(C)C)cc3)cc2OCCC[N+](C)(C)C)cc1.[Cl-].[Cl-].[Cl-].[Cl-] [N-OPE-2] |  |  | at least 14 fold |  | detectable CD signal | more than ten-fold
CCOC(=O)c1ccc(C#Cc2cc(OCCC[N+](C)(C)C)c(C#Cc3ccc(C(=O)OCC)cc3)cc2OCCC[N+](C)(C)C)cc1.[Cl-].[Cl-] [S-OPE-1 (COOEt)] |  | more than 18 fold |  | striking changes | detectable CD signal | 
C[N+](C)(C)CCCOc1cc(C#Cc2ccccc2)c(OCCC[N+](C)(C)C)cc1C#Cc1ccccc1.[Cl-].[Cl-] [S-OPE-1 (H)] |  | very little change |  | striking changes |  | 
